Values from PubChem BioAssay AID504761 (Drosophila RNAi Screening Center, 2011).
Assay: 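Insect host genes that dengue virus relies on to spread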 (primary screen). Cells: D.Mel-2 cells from Drosophila. Reagent: long dsRNA against Drosophila genes. Conditions: infection with dengue virus type 2; dose and infection time not stated. Measured: 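Per well on two replicate plates, imaging gave the percent of cells positive for viral envelope protein, ranked by infection, and a nuclear count of cells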. Scale: infection score: higher = more virus-infected cells; cell count: higher = more cells in the well. Call rule: 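Low infection ranks in the two replicates (chance level up to 0.065) followed by a retest with a 1.5-fold or larger significant decrease, p below 0.05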. Meaning of the calls: active = confirmed: knock-down lowers infection; inactive = not picked or not confirmed.
In all, the deposit lists about 22,000 reagents; this is a random part of those that have a named target and a result. Of all reagents, 116 (0.52%) were called active. 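Calls depend on retest data that are not deposited; infection was ranked per plate without normalising between plates; the unit of the infection score is not given.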 Raw values are not corrected between plates. Further read-outs or replicates are left out here. Reagent sequences are not shown. The record does not give: the amount of reagent, the time to read-out.

reb [DRSC06308] — infection score, replicate 1: 3.83; cell count, replicate 1: 6947; Outcome: inactive
CG4459 [DRSC15582] — infection score, replicate 1: 6.34; cell count, replicate 1: 5927; Outcome: inactive
Sec5 [DRSC00714] — infection score, replicate 1: 1.93; cell count, replicate 1: 5847; Outcome: inactive
CG15142 [DRSC02443] — infection score, replicate 1: 1.46; cell count, replicate 1: 6625; Outcome: inactive
Mpcp2 [DRSC11226] — infection score, replicate 1: 1.85; cell count, replicate 1: 6271; Outcome: inactive
CG14720 [DRSC14942] — infection score, replicate 1: 4.84; cell count, replicate 1: 6423; Outcome: inactive
SdhB [DRSC05018] — infection score, replicate 1: 1.14; cell count, replicate 1: 6059; Outcome: inactive
SdhB [DRSC21367] — infection score, replicate 1: 2.36; cell count, replicate 1: 6007; Outcome: inactive
CG11444 [DRSC17784] — cell count, replicate 1: 145; Outcome: inactive
CG11444 [DRSC24827] — infection score, replicate 1: 2.78; cell count, replicate 1: 6611; Outcome: inactive
CG13842 [DRSC14692] — infection score, replicate 1: 0.73; cell count, replicate 1: 6052; Outcome: inactive
Samtor [DRSC04390] — infection score, replicate 1: 2.98; cell count, replicate 1: 6243; Outcome: inactive
Samtor [DRSC24231] — infection score, replicate 1: 1.59; cell count, replicate 1: 6418; Outcome: inactive
CG31365 [DRSC15610] — infection score, replicate 1: 6.99; cell count, replicate 1: 6391; Outcome: inactive
